Anti-infective test results gathered from many reports (values: NIAID ChemDB through PubChem).

Common to all: growth or infection tests; organism: HIV-2; endpoint: EC50

Blank or dashed fields: not listed here.

structure | cell line | strain | method | value
Cc1cn([C@H]2C[C@H](O)[C@@H](CO)O2)c(=O)n(C)c1=O | CEM | ROD | microscopy | >400 µg/mL
CC(C)[C@H](NC(=O)[C@H](Cc1ccccc1)C[C@H](O)[C@H](Cc1ccccc1)NC(=O)OC(C)(C)C)C(=O)N[C@@H](Cc1ccccc1)C(=O)N1CCOCC1 | PBL | ROD | RT activity | 0.8 µM
CC(C)[C@H](NC(=O)OCc1ccccc1)C(=O)N[C@@H](Cc1ccccc1)[C@@H](O)[C@@H](NCc1ccc(Br)cc1)C(=O)N[C@H](C(=O)NCc1nc2ccccc2[nH]1)C(C)C | MT-4 | EHO | p24 | 0.68 µM
Cc1cn([C@H]2C[C@H](F)[C@@H](CO)O2)c(=O)n(CCF)c1=O | CEM | ROD | microscopy | 90 µg/mL
O=C(NCCc1ccccc1)Nc1nc2ccccc2s1 | MT-4 | - | cytopathic effect / XTT | <1 µg/mL
Cc1ccccc1C(Sc1cccc[n+]1[O-])C(N)=O | CEM | ROD | syncytia | >100 µg/mL
Cc1ccc2c(c1)nc(-c1c(F)cccc1F)n2Cc1c(F)cccc1F | MT-4 | ROD | RT activity | >31.95 µM
CCCCCCCCOc1ccc(/C=C(/C#N)Sc2cccc[n+]2[O-])cc1 | CEM | ROD | syncytia | >20 µg/mL
Cc1ccc(C(C)C)c2oc(=O)c(C(=O)/C=C/c3ccccc3[N+](=O)[O-])c(O)c12 | MT-4 | ROD | virus yield | >2.81 µg/mL
Cc1ccc(C)c(CS(=O)c2cccc[n+]2[O-])c1 | CEM | ROD | syncytia | ≥20 µg/mL
Cc1cc2oc(=O)c(C(=O)/C=C/c3cccc([N+](=O)[O-])c3)c(O)c2cc1Cl | MT-4 | ROD | virus yield | >66.5 µg/mL
O=C1c2ccccc2N(Cc2ccccc2-c2ccccc2)S(=O)(=O)N1Cc1ccccc1 | MT-4 | ROD | p24 | >125 µM
Cc1cccc(CS(=O)c2cccc[n+]2[O-])c1 | CEM | ROD | syncytia | >20 µg/mL
O=C1c2ccccc2N(CC2CCCCC2)S(=O)(=O)N1Cc1ccccc1 | CEM + CEM-SS | ROD | p24 | >10 µM
O=C1C=CN(COCc2ccccc2)S(=O)(=O)N1 | MT-4 | - | cytopathic effect / MTT | >400 µg/mL
COc1ccc(C(=O)CSc2nc3nc(C4=CCC=C=N4)c(-c4ccccn4)nc3c(=O)[nH]2)cc1 | MT-4 | ROD | cytopathic effect / MTT / absorbance | >36.1 µM
CCO[C@]12CS(=O)(=O)O[C@@]13[C@@H](CN2)O[C@@H](n1cc(C)c(=O)[nH]c1=O)[C@@H]3OC(C)=O | MT-4 | ROD | - | >250 µM
COc1cc(CS(=O)c2cccc[n+]2[O-])cc(OC)c1OC | CEM | ROD | syncytia | >20 µg/mL
C#CCOCN1C=CC(=O)N(COCC#C)S1(=O)=O | MT-4 | - | cytopathic effect / MTT | >400 µg/mL
Cc1cn([C@H]2C[C@H](O)[C@@H](CO)O2)c(=O)n(CCF)c1=O | CEM | ROD | microscopy | >400 µg/mL
COC(=O)C(OCC1OC(n2cc(C)c(=O)[nH]c2=O)CC1N=[N+]=[N-])P(=O)(O)OP(=O)(O)OP(=O)(O)O | CEM | ROD | cytopathic effect / syncytia | >100 µg/mL
CCCCN1C(=O)[C@@H](Cc2ccccc2)NC1=S | MT-4 | - | cytopathic effect / XTT | <10 µg/mL
CC(C)CS[C@@H]1C=C[C@H](n2cnc3c(N)ncnc32)C1 | CEM | ROD | cytopathic effect / syncytia / trypan blue | >10 µg/mL
N#C/C(=C/c1c(Cl)cccc1Cl)S(=O)(=O)c1cccc[n+]1[O-] | CEM | ROD | syncytia | >4 µg/mL
Cc1ccc(C(C)C)c2oc(=O)c(C(=O)/C=C/c3ccccc3)c(O)c12 | MT-4 | ROD | virus yield | >13.2 µg/mL
COc1cc2c(cc1Cc1c(F)cccc1Cl)nc(-c1c(F)cccc1Cl)n2Cc1c(F)cccc1Cl | MT-4 | ROD | RT activity | >127 µM
CC(C)[C@H](NC(=O)OCc1ccccc1)C(=O)N[C@@H](Cc1ccccc1)[C@@H](O)[C@@H](NCc1ccccc1)C(=O)N[C@H](C(=O)NCc1ccccc1)C(C)C | MT-4 | EHO | p24 | >3 µM
NC1=NC(N)c2nc(-c3ccccn3)c(-c3ccccn3)nc2N1 | MT-4 | ROD | cytopathic effect / MTT / absorbance | >10.52 µM
CCO[C@]12CS(=O)(=O)O[C@@]13[C@@H](CN2)O[C@@H](n1ccc(=O)[nH]c1=O)[C@@H]3O[Si](C)(C)C(C)(C)C | MT-4 | ROD | - | >50 µM
Cc1cc2nc(-c3c(F)cccc3F)n(Cc3c(F)cccc3F)c2cc1C | MT-4 | ROD | RT activity | >6.15 µM
COc1ccc(-c2csc3nc4nc(-c5ccccn5)c(-c5ccccn5)nc4c(=O)n23)cc1 | MT-4 | ROD | cytopathic effect / MTT / absorbance | >18.99 µM
Cc1cn([C@@H]2O[C@@H]3CN[C@@]4(OCC5CCOC5)CS(=O)(=O)O[C@@]34[C@H]2O[Si](C)(C)C(C)(C)C)c(=O)[nH]c1=O | CEM | ROD | - | >50 µM
O=c1[nH]c(=O)c2nc(-c3ccccn3)c(-c3ccccn3)nc2[nH]1 | MT-4 | ROD | cytopathic effect / MTT / absorbance | >103 µM
CC(C)c1ccc(CS(=O)(=O)c2cccc[n+]2[O-])cc1 | MAGI | ROD | β-galactosidase | 12 µg/mL
O=C(CSc1nc2nc(C3=CCC=C=N3)c(-c3ccccn3)nc2c(=O)[nH]1)c1ccccc1 | MT-4 | ROD | cytopathic effect / MTT / absorbance | >41.88 µM
O=C1c2ccccc2N(Cc2ccccc2)S(=O)(=O)N1Cc1ccccc1 | MT-4 | ROD | p24 | >125 µM
O=C(NCCc1ccccc1)Nc1nc2ccc(F)cc2s1 | MT-4 | - | RT activity | <1 µg/mL
O=S(=O)(Cc1c(Cl)c(Cl)c(Cl)c(Cl)c1Cl)c1cccc[n+]1[O-] | MAGI | ROD | β-galactosidase | 2 µg/mL
Cc1cc(S(=O)(=O)Nc2nnc3c4ccccc4cnn23)c(S)cc1Cl | CEM | ROD | p24 | 7.8 µM
Cc1ccc(C)c(C(CC(C)C)S(=O)(=O)c2cccc[n+]2[O-])c1 | CEM | ROD | syncytia | >4 µg/mL
CCc1c(C(=O)c2cc(C)cc(C)c2)n(CC2CC=CC2)c(=O)[nH]c1=O | CEM + CEM-SS | ROD | cytopathic effect / XTT | 0.16 µM
Cc1cn(C2CC(N=[N+]=[N-])C(COC(C(=O)O)P(=O)(O)OP(=O)(O)OP(=O)(O)O)O2)c(=O)[nH]c1=O | CEM | ROD | cytopathic effect / syncytia | ≥100 µg/mL
O=C(NCCc1ccccc1)Nc1nc2c(Cl)cccc2s1 | MT-4 | - | RT activity | <10 µg/mL
Cc1cn([C@@H]2O[C@@H]3CN[C@@]4(OCC(C)(C)C)CS(=O)(=O)O[C@@]34[C@H]2O)c(=O)[nH]c1=O | MT-4 | ROD | - | >250 µM
COc1ccc[n+]([O-])c1SCc1cc(C)ccc1C | CEM | ROD | syncytia | >20 µg/mL
COc1ccc(/C=C/C(=O)c2c(O)c3cc(Cl)c(C)cc3oc2=O)cc1OC | MT-4 | ROD | virus yield | >71.4 µg/mL
Cc1ccc(C)c(C(C)S(=O)c2cccc[n+]2[O-])c1 | CEM | ROD | syncytia | >0.8 µg/mL
Clc1nccc2nc(-c3ccccn3)c(-c3ccccn3)nc12 | MT-4 | ROD | cytopathic effect / MTT / absorbance | >67.36 µM
COC(=O)C(c1cc(C)ccc1C)S(=O)(=O)c1cccc[n+]1[O-] | CEM | ROD | syncytia | 6.7 µg/mL
Cc1cc(C)cc(C(=O)c2c(C(C)C)c(=O)[nH]c(=O)n2CC2CC=CC2)c1 | CEM + CEM-SS | ROD | cytopathic effect / XTT | 0.16 µM
Cc1ccc(C)c(C(Cc2ccccc2)S(=O)(=O)c2cccc[n+]2[O-])c1 | CEM | ROD | syncytia | >4 µg/mL
COC(=O)CCNP(=O)(OC[C@@H]1C=C[C@H](n2cc(C)c(=O)[nH]c2=O)O1)Oc1ccccc1 | CEM + CEM/0 | - | cytopathic effect / microscopy | 6 µM
CCS[C@]12CS(=O)(=O)O[C@@]13[C@@H](CN2)O[C@@H](n1cc(C)c(=O)[nH]c1=O)[C@@H]3O | CEM | ROD | - | >250 µM
COC(=O)C(c1cccc(Oc2ccccc2)c1)S(=O)(=O)c1cccc[n+]1[O-] | CEM | ROD | syncytia | >4 µg/mL
Nc1nc(=S)c2nc(-c3ccccn3)c(-c3ccccn3)nc2[nH]1 | MT-4 | ROD | cytopathic effect / MTT / absorbance | >47.64 µM
C[C@H](NC(=O)CCC(CCC(=O)N[C@@H](C)C(=O)O)(CCC(=O)N[C@@H](C)C(=O)O)NC(=O)CCOCC(COCCC(=O)NC(CCC(=O)N[C@@H](C)C(=O)O)(CCC(=O)N[C@@H](C)C(=O)O)CCC(=O)N[C@H](C)C(=O)O)(COCCC(=O)NC(CCC(=O)N[C@@H](C)C(=O)O)(CCC(=O)N[C@H](C)C(=O)O)CCC(=O)N[C@H](C)C(=O)O)COCCC(=O)NC(CCC(=O)N[C@@H](C)C(=O)O)(CCC(=O)N[C@H](C)C(=O)O)CCC(=O)N[C@H](C)C(=O)O)C(=O)O | CD4+ T-cell | ROD | MTS | >100 µM
CC(C)[C@H](NC(=O)OCc1ccccc1)C(=O)N[C@@H](Cc1ccccc1)[C@@H](O)[C@@H](NCc1ccccc1)C(=O)N[C@H](C(=O)NCc1nc2ccccc2[nH]1)C(C)C | MT-4 | ROD | p24 | 1.1 µM
O=S1(=O)N=C(OCc2ccccc2)c2ccccc2N1Cc1ccc(Cl)c(Cl)c1 | MT-4 | ROD | p24 | >125 µM
CCOC(=O)[C@H](C)NP(=O)(OC[C@@H]1C=C[C@H](n2cc(C)c(=O)[nH]c2=O)O1)Oc1ccccc1 | CEM + CEM/0 | - | cytopathic effect / microscopy | 0.07 µM
Cc1cn([C@@H]2O[C@@H]3CN[C@@]4(OCc5ccccc5)CS(=O)(=O)O[C@@]34[C@H]2O)c(=O)[nH]c1=O | MT-4 | ROD | - | >250 µM
COc1cc(/C=C/C(=O)c2c(O)c3cc(Cl)c(C)cc3oc2=O)ccc1O | MT-4 | ROD | virus yield | >6.64 µg/mL
O=S(=O)(Cc1ccccc1)c1ncccc1O | CEM | ROD | syncytia | >100 µg/mL
CC(C)[C@H](NC(=O)[C@H](NCc1ccc(Cl)cc1)[C@H](O)[C@H](Cc1ccccc1)NC(=O)[C@@H](NC(=O)OCc1ccccc1)C(C)(C)C)C(=O)NCc1nc2ccccc2[nH]1 | MT-4 | EHO | p24 | 0.263 µM
Cc1cc2oc(=O)c(C(=O)/C=C/c3ccc(N(C)C)cc3)c(O)c2cc1Cl | MT-4 | ROD | virus yield | >125 µg/mL
Cc1ccc[n+]([O-])c1SC(C)c1ccccc1 | CEM | ROD | syncytia | >20 µg/mL
CC(C)CN(C[C@@H](O)[C@H](Cc1cc(F)cc(F)c1)NC(=O)O[C@H]1CO[C@H]2OC[C@H](NC(C)C)[C@H]21)S(=O)(=O)c1ccc2nc(NC3CC3)sc2c1 | MT-4 | EHO | MTT / p24 | 0.0000045 µM
Cc1ccc[n+]([O-])c1S(=O)(=O)Cc1cccc([N+](=O)[O-])c1C | CEM | ROD | syncytia | >4 µg/mL
CC#CCN1c2ccccc2C(=O)N(Cc2ccccc2)S1(=O)=O | CEM + CEM-SS | ROD | p24 | >10 µM
Cc1c(Cl)ccc(C(C)S(=O)c2cccc[n+]2[O-])c1Cl | CEM | ROD | syncytia | >0.8 µg/mL
CCCCCO[C@]12CS(=O)(=O)O[C@@]13[C@@H](CN2)O[C@@H](n1cc(C)c(=O)[nH]c1=O)[C@@H]3O[Si](C)(C)C(C)(C)C | MT-4 | ROD | - | >5 µM
O=C(Nc1sc2c(c1C(=O)Nc1ccccn1)CCCCC2)c1ccc(O)c(O)c1 | MT-4 | ROD | MTT / absorbance | >30.69 µM
Cc1ccc(C)c(CS(=O)(=O)c2ncccc2O)c1 | CEM | ROD | syncytia | 100 µg/mL
COC(=O)[C@@H](C)NP(=O)(OC[C@@H]1C=C[C@H](n2cc(C)c(=O)[nH]c2=O)O1)Oc1ccccc1 | CEM + CEM TK- | ROD | - | 2.5 µM

Rows are shuffled and stem from different studies. ECn is the concentration giving n% inhibition of infection, replication or growth.